Experimental data published in the supplement of paper PMC12637763.
This is one part of the list. Env chains of viruses from a treatment-interruption trial, translated from the printed DNA. IC50 / IC80 of two broadly neutralizing antibodies; lower = more sensitive virus; >50 µg/ml means not reached and <0.001 µg/ml is below the lowest dose. No active / inactive call.

Columns and labels:
antibody 10-1074 [1] = assay: neutralization IC50; higher = virus less sensitive to the antibody
Experimental: (§1)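 Pseudovirus bearing the Env chain mixed with antibody, from 50 µg/ml in fivefold dilutions, on TZM-bl reporter cells, in duplicate.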

antibody 3BNC117 [2] = assay: as above
Experimental: as §1

antibody 10-1074 [3] = assay: neutralization IC80; higher = virus less sensitive to the antibody
Experimental: as §1

antibody 3BNC117 [4] = assay: as above
Experimental: as §1

B1: HIV-1 Env, rebound clone, antibody arm (protein)
chain: MRVREIRRNYLWRWGTLLLGILMMICSADNWWVTVYYGVPVWKEATTTLFCASDAKAYETEVHNVWATHACVPTDPNPQEVALENVTENFNMWKNNMVEQMQEDIISLWDQSLKPCVELTPLCVTLNCTNVNNTRTNSTISGPTAKPGEEEMKNCSFNITTGIRDKIKKEYALFYKLDVVPIDDSNTSYRLISCNTSVIKQACPKVSFEPIPIHYCAPAGFAILKCRDKQFNGTGPCRNVSTVQCTHGIKPVVTTQLLLNGSLAEEEVVIRSANFSDNAKIIIVQLNESVQINCTRPNNNTRKSIPIGPGRAFYATGDIIGDIRQAHCDISKTRWNNTLKLIREKLKTQFGDKTIVFNQSSGGDPEIVTHSFNCGGEFFYCNTTPLFNSTEGSNTTAENNTTDIITLQCRIKQIINMWQKVGKAMYAPPIRGNISCSSNITGLLLTRDGGNTTDNGSEIFRPGGGDMRDNWRSELYKYKVVKIEPIGLAPTKAKRRVVQREKRALGMGALFLGFLGAAGSTMGAASVTLTVQARQLLSGIVQQQNNLLRAIEAQQHLLQLTVWGIKQLQARVLAVESYLRDQQLLGIWGCSGKLICTTAVPWNISWSKSKSWNKTNLADIWENMTWMQWESEIDNYTNIIYQLIEESQNQQEKNEKDLLELDKWASLWNWFSISNWLWYIKLFIMIVGGLIGLRIIFSVLSIVNRVRQGYSPLSFQTRPPAARGHDRPERIEEGGGDRDRDRSNQLVDGFLALIWVDLRSLCLFSYHRLRDFLLVVTRIVELLGRRGWEILKYWWNLLQYWSQELKNSAVSLLNATAIAVAEGTDRVIEIVQRAFRAIIHIPTRIRQGFERALL
Antibody 10-1074 [1]
  neutralization IC50: > 50 µg/mL
Antibody 3BNC117 [2]
  neutralization IC50: 0.186 µg/mL
Antibody 10-1074 [3]
  neutralization IC80: > 50 µg/mL
Antibody 3BNC117 [4]
  neutralization IC80: 0.78 µg/mL

B2: HIV-1 Env, rebound clone, antibody arm (protein)
chain: MRVREIRRNYLWRWGTLLLGILMMICSADNWWVTVYYGVPVWKEATTTLFCASDAKAYETEVHNVWATHACVPTDPNPQEVALENVTENFNMWKNNMVEQMQEDIISLWDQSLKPCVELTPLCVTLNCTNVNNTRTNSTISGPTAKPGEEEMKNCSFNITTGIRDKIKKEYALFYKLDVVPIDDSNTSYRLISCNTSVIKQACPKVSFEPIPIHYCAPAGFAILKCRDKQFNGTGPCRNVSTVQCTHGIKPVVTTQLLLNGSLAEEEVVIRSANFSDNAKIIIVQLNESVQINCTRPNNNTRKSIPIGPGRAFYATGDIIGDIRQAHCDISKTRWNNTLKLIREKLKTQFGDKTIVFNQSSGGDPEIVTHSFNCGGEFFYCNTTPLFNSTEGSNTTAENNTTDIITLQCRIKQIINMWQKVGKAMYAPPIRGNISCSSNITGLLLTRDGGNTTDNGSEIFRPGGGDMRDNWRSELYKYKVVKIEPIGLAPTKAKRRVVQREKRALGMGALFLGFLGAAGSTMGAASVTLTVQARQLLSGIVQQQNNLLRAIEAQQHLLQLTVWGIKQLQARVLAVESYQRDQQLLGIWGCSGKLICTTAVPWNISWSKSKSWNKTNLADIWENMTWMQWESEIDNYTNIIYQLIEESQNQQEKNEKDLLELDKWASLWNWFSISNWLWYIKLFIMIVGGLIGLRIIFSVLSIVNRVRQGYSPLSFQTRPPAARGHDRPEGIEEGGGDRDRDRSNQLVDGFLALIWVDLRSLCLFSYHRLRDFLLVVTRIVELLGRRGWEILKYWWNLLQYWSQELKNSAVSLLNATAIAVAEGTDRVIEIVQRAFRAIIHIPTRIRQGFERALL
Antibody 10-1074 [1]
  neutralization IC50: > 50 µg/mL
Antibody 3BNC117 [2]
  neutralization IC50: 0.119 µg/mL
Antibody 10-1074 [3]
  neutralization IC80: > 50 µg/mL
Antibody 3BNC117 [4]
  neutralization IC80: 0.446 µg/mL

B3: HIV-1 Env, rebound clone, antibody arm (protein)
chain: MRVREIRRNYLWRWGTLLLGILMMICSADNWWVTVYYGVPVWKEATTTLFCASDAKAYETEVHNVWATHACVPTDPNPQEVALENVTENFNMWKNNMVEQMQEDIISLWDQSLKPCVELTPLCVTLNCTNVNNTRTNSTISGPTAKPGEEEMKNCSFNITTGIRDKIKKEYALFYKLDVVPIDDSNTSYRLISCNTSVIKQACPKVSFEPIPIHYCAPAGFAILKCRDKQFNGTGPCRNVSTVQCTHGIKPVVTTQLLLNGSLAEEEVVIRSANFSDNAKIIIVQLNESVQINCTRPNNNTRKSIPIGPGRAFYATGDIIGDIRQAHCDISKTRWNNTLKLIREKLKTQFGDKTIVFNQSSGGDPEIVTHSFNCGGEFFYCNTTPLFNSTEGSNTTAENNTTDIITLQCRIKQIINMWQKVGKAMYAPPIRGNISCSSNITGLLLTRDGGNTTDNGSEIFRPGGGDMRDNWRSELYKYKVVKIEPIGLAPTKAKRRVVQREKRALGMGALFLGFLGAAGSTMGAASVTLTVQARQLLSGIVQQQNNLLRAIEAQQHLLQLTVWGIKQLQARVLAVESYLRDQQLLGIWGCSGKLICTTAVPWNISWSKSKSWNKTNLADIWENMTWMQWESEIDNYTNIIYQLIEESQNQQEKNEKDLLELDKWASLWNWFSISNWLWYIKLFIMIVGGLIGLRIIFSVLSIVNRVRQGYSPLSFQTRPPAARGHDRPEGIEEGGGNRDRDRSNQLVDGFLALIWVDLRSLCLFSYHRLRDFLLVVTRIVELLGRRGWEILKYWWNLLQYWSQELKNSAVSLLNATAIAVAEGTDRVIEIVQRAFRAIIHIPTRIRQGFERALL
Antibody 10-1074 [1]
  neutralization IC50: > 50 µg/mL
Antibody 3BNC117 [2]
  neutralization IC50: 0.233 µg/mL
Antibody 10-1074 [3]
  neutralization IC80: > 50 µg/mL
Antibody 3BNC117 [4]
  neutralization IC80: 0.79 µg/mL

B4: HIV-1 Env, rebound clone, antibody arm (protein)
chain: MRAKGIRKNCQDLLKGGILLLGILMICSAAGNLWVTVYYGVPVWKDATTTLFCASDAKGYSKEAHNVWATHACVPTDPDPREIVMGNVTENFNMWKNDMVDQMHEDIISLWDQSLKPCVKLTPLCVTLNCTNLNITNLNNTNSNTSDTNNNTSSENGSEEMKNCSFNVTTIKGKYQKEYAVLYKLDLVPIDNNDNTSYMLINCNTSVITQACPKISFEPIPIHYCAPAGFAILKCNNKTFNGTGPCTNVSSVQCTHGIRPVVSTQLLLNGSLAEEEVVIRSENFTDNAKTIIVQLKDPIQINCTRPNNNTRKSIHIGPGRAFYATGQIIGNIRQAYCNISKEQWNEALNQTVRKLREQFGNKTMIFNQSSGGDPEIVMHTFNCGGEFFYCNTTQLFNSTWYDTTNSTDSNNNTIKLPCRIKQVINRWQEVGKAMYAPPISGPIRCSSNITGLLLVRDGGNNNSSNSSETFRPGGGNMKDNWRSELYKYKVVKIEPLGVAPTKAKRRVVQRERRAVTLGAMFLGFLGTAGSTMGAASLTLTVQARQLLSGIVQQQSNLLRAIEVHQHMLQLTVWGIKQLQARVLAVERYLKDQQLLGIWGCSGKLICTTTVPWNASWSKKNLSEIWDNMTWIEWEREIQNYTEEIYSLIEKSQNQQAKNEQELLELDKWANLWNWFDITNWLWYIKIFIMIVGGLIGLRIVFTVLSIVNRVRQGYSPLSFQTRLPTQRGPDRPGGTEEEGGERDRDTSRPLVDGFLAIIWVDLRSLFLFSYHRLRDLLLIVTRIVETLGRRGWELLKYWWNLLQYWSQELKNSAISLLNATAIAVAEGTDRVIELIQRAGRAIIHIPRRIRQGLESALL
Antibody 10-1074 [1]
  neutralization IC50: > 50 µg/mL
Antibody 3BNC117 [2]
  neutralization IC50: 0.267 µg/mL
Antibody 10-1074 [3]
  neutralization IC80: > 50 µg/mL
Antibody 3BNC117 [4]
  neutralization IC80: 1.16 µg/mL

B5: HIV-1 Env, rebound clone, antibody arm (protein)
chain: MKAKETRKNYQHLWRWGIMLLGMLMICSAASQLWVTVYYGVPVWKEATTTLFCASDAKAYDTEVHNVWATHACVPTDPNPQEVVLGNVTEDFNMWKNNMVEQMHEDIISLWDQSLKPCVKITPLCVTLNCTEYINDTSTTWGQMEKGEIKNCSFNVTTNIKNKMQKEYALFYKLDVVPIGDNSTNYRLIKCNTSAITQACPKVSFQPIPIHYCAPAGFAILKCNNKTFNGLGPCTNVSTVQCTHGIRPVVSTQLLLNGSLAEEEIVIRSENFSDNAKNIIVHLNASIEINCTRPNNNTRKSITIGPGRAFYATGDVIGDIRQAHCNISGEKWNEALKQIAIKLREQFGHNKTIVFNQSSGGDPEIVAHSVNCGGEFFYCNSTKLFNSTWHSNGIQNNTTESNETITLPCKIKQIINLWQEVGKAIYAPPISGPIRCSSNITGLLLTRDGGNTSETNKETFRPGGGDMRDNWRSELYKYKVVKIEPLGVAPTKAKRRVVQRERRAVGTFGALFLGFLGTAGSTMGAASITLTVQARQLLSGIVQQQNNLLKAIEAQQHLLQLTVWGIKQLQARVLAVERYLKDQQLLGLWGCSGKLICTTTVPWNASWSNKSLEQIWENMTWMQWEKEIDNYTGIIYSLISESQLQQEKNEKELLELDKWASLWTWFDITNWLWYIKIFIMIVGGLIGLRIVFAVLSIVNKVRKGYSPLSFQTRLPTPRGPDRPEGIEEEGGERGRDTSIRLVDGFLALIWDDLRNLCLFSYHHLRDLILIVVRTVELLGRRGWELLKYWWNLLKYWSQELKKSAVSLFNAAAIAVAEGTDRVIEVVQRAGRGILHVPRRIRQGLERALQ
Antibody 10-1074 [1]
  neutralization IC50: 0.002 µg/mL
Antibody 3BNC117 [2]
  neutralization IC50: 0.105 µg/mL
Antibody 10-1074 [3]
  neutralization IC80: 0.008 µg/mL
Antibody 3BNC117 [4]
  neutralization IC80: 0.379 µg/mL

B6: HIV-1 Env, rebound clone, antibody arm (protein)
chain: MKAKETRKNYQHLWRWGIMLLGMLMICSAASQLWVTVYYGVPVWKEATTTLFCASDAKAYDTEVHNVWATHACVPTDPNPQEVVLGNVTEDFNMWKNNMVEQMHEDIISLWDQSLKPCVKITPLCVTLNCTEYINDTSTTWGQMEKGEIKNCSFNVTTNIKNKMQKEYALFYKLDVVPIGDNSTNYRLIKCNTSAITQACPKVSFQPIPIHYCAPAGFAILKCNNKTFNGLGPCTNVSTVQCTHGIRPVVSTQLLLNGSLAEEEIVIRSENFSDNAKNIIVHLNASIEINCTRPNNNTRKSITIGPGRAFYATGDVIGDIRQAHCNISGEKWNEALKQIAIKLREQFGHNKTIVFNQSSGGDPEIVAHSVNCGGEFFYCNSTKLFNSTWHSNGIQNNTTESNETITLPCKIKQIINLWQEVGKAIYAPPISGPIRCSSNITGLLLTRDGGNTSETNKEIFRPGGGDMRDNWRSELYKYKVVKIEPLGVAPTKAKRRVVQRERRAVGTFGALFLGFLGTAGSTMGAASITLTVQARQLLSGIVQQQNNLLKAIEAQQHLLQLTVWGIKQLQARVLAVERYLKDQQLLGLWGCSGKLICTTTVPWNASWSNKSLEQIWENMTWMQWEKEIDNYTGIIYSLISESQLQQEKNEKELLELDKWASLWTWFDITNWLWYIKIFIMIVGGLIGLRIVFAVLSIVNKVRKGYSPLSFQTRLPTPRGPDRPEGIEEEGGERGRDTSIRLVDGFLALIWDDLRNLCLFSYHHLRDLILIVVRTVELLGRRGWELLKYWWNLLKYWSQELKKSAVSLFNAAAIAVAEGTDRVIEVVQRAGRGILHVPRRIRQGLERALQ
Antibody 10-1074 [1]
  neutralization IC50: 0.002 µg/mL
Antibody 3BNC117 [2]
  neutralization IC50: 0.166 µg/mL
Antibody 10-1074 [3]
  neutralization IC80: 0.008 µg/mL
Antibody 3BNC117 [4]
  neutralization IC80: 0.726 µg/mL
